In the supplement of paper PMC9931576:
Human monoclonal antibodies against the spike receptor-binding domain (heavy:light variable regions). IC50 against pseudoviruses bearing the spike of naturally observed variants; lower = stronger; >10 µg/ml means not reached at the top dose. No active / inactive call. The stated detection limit is 0.0005 µg/ml; values near or below 0.001 µg/ml lie at the floor of the assay.

Experiments:
Assay in all cases: pseudovirus neutralization IC50; higher = weaker neutralization
[1] = target: SARS-CoV-2 Omicron BA.1 spike pseudovirus
Protocol: (§1)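 Single-round VSV luciferase pseudovirus mixed with antibody dilutions for 1 h and put on Huh-7 cells for about a day; IC50 from the dose curve.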

[2] = target: SARS-CoV-2 Omicron BA.2 spike pseudovirus
Protocol: as §1

[3] = target: SARS-CoV-2 Omicron BA.2.75 spike pseudovirus
Protocol: as §1

[4] = target: SARS-CoV-2 Omicron BA.5 spike pseudovirus
Protocol: as §1

[5] = target: SARS-CoV-2 Omicron BQ.1.1 spike pseudovirus
Protocol: as §1

[6] = target: SARS-CoV-2 Omicron XBB spike pseudovirus
Protocol: as §1

[7] = target: SARS-CoV-2 early D614G spike pseudovirus
Protocol: as §1

Binder	pseudovirus neutralization IC50 [1]	pseudovirus neutralization IC50 [2]	pseudovirus neutralization IC50 [3]	pseudovirus neutralization IC50 [4]	pseudovirus neutralization IC50 [5]	pseudovirus neutralization IC50 [6]	pseudovirus neutralization IC50 [7]
BD56-733 (protein) chain 1: QVQLQQWGAGLLKPSETLSLTCAVYGGSFSGYFWNWIRQPPGKGLEWIGEISHSGSTNYNPSLKSRVTISVDTSKNQFSLKLSSVTAADTAVYYCTRGGWEYYASLPGPNDYWGQGTLVTVSS chain 2: DIVLTQSPDSLAVSLGERASITCKSSQSVFYNSNNKNYLAWYQQKPGQPPNLLIYWASARESGVPDRFSGSGSGTDFSLTISSLQAEDVAVYYCQQYYTTPYTFGQGTRLEIK	0.379 µg/mL	3.02 µg/mL	3.48 µg/mL	3.07 µg/mL	3.14 µg/mL	2.33 µg/mL	1.4 µg/mL
BD56-887 (protein) chain 1: QVQLVQSGAEVKKPGASVKVSCKASGYTFTSYDINWVRQATGQGLEWMGWMNPNRGNTGYAQKFQGRVTMTRNTSISTAYMELSSLRSEDTAVYYCASGEGLGYWGQGTLVTVSS chain 2: QSVLTQPPSVSEAPRQRVTISCSGSSSNIGNNDVKWYQQLPGKAPKLLIYYDDLLPSGVSDRFSGSKSGTSASLAISGLQSEDEADYYCAAWDDSLNGVVFGGGTKLTVL	0.0021 µg/mL	0.00193 µg/mL	0.0409 µg/mL	0.692 µg/mL	> 10 µg/mL	0.788 µg/mL	> 10 µg/mL
BD56-902 (protein) chain 1: EVQLVESGGSLVQPGRSLRLSCAASGFTFDDYAMHWVRQAPGKGLEWVSGISWNGHNIGYADSVKGRVTISRDNAKNSLYLQLNSLRAEDTALYYCAKDILGEWELHQAYFDYWGQGTLVTVSS chain 2: QSVLTQPPSASGTPGQRVTISCSGSSSNIGSKFVYWYQHLPGTAPKLLIYRNNQRPSGVPDRFSGSKSGTSASLAISGLRSEDEAEYYCAAWDDSLSGPVFGTGTKVTVL	> 10 µg/mL	> 10 µg/mL	> 10 µg/mL	> 10 µg/mL	> 10 µg/mL	> 10 µg/mL	0.316 µg/mL
BD56-906 (protein) chain 1: QVQLVESGGGVVQPGRSLRLSCAASGFTFSSYGMHWVRQAPGKGLEWVAVISYDGSNKYYADSVKGRLTISRDNSKNTLYLQMSSLRAEDTAVYYCAKTDGTYAYYYYGMDVWGQGTTVTVSS chain 2: QSALTQPASVSGSPGQSITISCTGTSSDVGFYNYVSWYQQHPGKAPKLMIYEVSNRPSGVSNRFSGSKSGNTASLTISGLQAEDEADYYCSSYTSSSTWVFGGGTKLTVL	> 10 µg/mL	> 10 µg/mL	> 10 µg/mL	> 10 µg/mL	> 10 µg/mL	> 10 µg/mL	> 10 µg/mL
CV07-200 (protein) chain 1: QVQLVQSGTEMKKPGASVKVSCKASGYTFTGYYMHWVRQAPGQGLEWMGWINPNSGGTNYAQKFQGRVTMTRDTSIRTVYMELSRLRSDDTAVYYCARGPFYYDNSGTLGGLDVWGQGTTVTVSS chain 2: QSALTQPASVSGSPGQSITISCTGTSSDVGGYNYVSWYQQHPGKAPKLMIYEVSNRPSGVSNRFSGSKSGNTASLTISGLQAEDEADYYCSSYTSSSTYVFGTGTKVTVL	> 10 µg/mL	> 10 µg/mL	> 10 µg/mL	> 10 µg/mL	> 10 µg/mL	> 10 µg/mL	0.0301 µg/mL
BD56-916 (protein) chain 1: QVQLQESGPGLVKPSETLSLTCTVSGASVSSRSWHWSWIRQSPGKGLEWIGYIHYSGSTKFNPSLKSRVTISVDTSKNQFSLKLRSVTAADTAVYYCARDGGGDYGEDWGQGTLVTVSS chain 2: DIQMTQSPSTLSASVGDRVTITCRASQSINVWLAWYQQKPGKAPKLLIYKAYSLESGVPSRFSGSGSGTEFTLTISSLQPDDFATYYCQQYSSYWTFGQGTKVEMK	> 10 µg/mL	> 10 µg/mL	> 10 µg/mL	> 10 µg/mL	> 10 µg/mL	> 10 µg/mL	0.338 µg/mL
